{"sequences": {"note": "Protein sequences, listed by entry. Tags and fused reporters are not part of them.", "UniProt P9WHJ3, whole entry": "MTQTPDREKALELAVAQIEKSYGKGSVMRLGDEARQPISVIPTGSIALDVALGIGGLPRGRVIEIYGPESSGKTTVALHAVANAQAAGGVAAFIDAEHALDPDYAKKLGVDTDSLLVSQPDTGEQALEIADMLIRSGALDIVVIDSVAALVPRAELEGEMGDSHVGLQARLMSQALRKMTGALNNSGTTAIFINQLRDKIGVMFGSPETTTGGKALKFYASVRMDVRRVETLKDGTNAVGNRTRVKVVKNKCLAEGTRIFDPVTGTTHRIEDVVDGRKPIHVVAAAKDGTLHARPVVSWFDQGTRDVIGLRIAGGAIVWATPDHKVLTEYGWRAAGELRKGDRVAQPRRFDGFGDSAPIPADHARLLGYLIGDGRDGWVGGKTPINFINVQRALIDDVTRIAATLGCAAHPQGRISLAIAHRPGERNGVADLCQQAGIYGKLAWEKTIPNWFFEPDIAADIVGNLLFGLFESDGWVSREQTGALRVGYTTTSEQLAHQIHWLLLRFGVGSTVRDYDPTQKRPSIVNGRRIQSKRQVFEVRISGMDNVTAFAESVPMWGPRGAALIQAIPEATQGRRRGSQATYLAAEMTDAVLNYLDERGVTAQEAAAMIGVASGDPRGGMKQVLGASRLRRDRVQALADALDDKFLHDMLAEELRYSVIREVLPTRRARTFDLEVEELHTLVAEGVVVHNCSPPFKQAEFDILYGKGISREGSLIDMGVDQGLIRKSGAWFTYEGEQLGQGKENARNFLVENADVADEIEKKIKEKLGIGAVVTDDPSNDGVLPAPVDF"}, "source": "PubChem BioAssay AID2221", "about": "(Broad Institute, 2009)", "note": "This is a selection; strong and weak results do not stand in their true shares. Activity calls are given as the source filed them. No stated cut-off is given here; in the data, active means inhibition above about 30%; inconclusive means no clear call, values can overlap the other calls; inactive means below that.", "data": [{"target": "Protein RecA (Mycobacterium tuberculosis (strain ATCC 25618 / H37Rv)) (UniProt P9WHJ3)", "test": "Mtb RecA intein splicing inhibitors, primary screen, biochemical, fluorescence, HTS (AID 2221);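 further: 0% = vehicle wells and 100% = reference inhibitor control wells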", "settings": "cell-free RecA intein splicing, active compounds read high, concentration not given here", "values": [{"smiles": "COc1cc(OC)cc(C(=O)NCC2(N3CCCCC3)CCCCC2)c1", "inhibition": "inactive: 0.134%"}, {"smiles": "Cc1ccc(C(=O)NCC2(N3CCCCC3)CCCCC2)o1", "inhibition": "inactive: -0.773%"}, {"smiles": "Fc1ccccc1NC1CCN(Cc2ccccc2)CC1", "inhibition": "inactive: 2.4%"}, {"smiles": "CCN1CCC(Nc2cccc(F)c2)CC1", "inhibition": "inactive: 5.21%"}, {"smiles": "CN(C)c1ccc(C(=O)NCC2(N3CCCCC3)CCCCC2)cc1", "inhibition": "inactive: -0.851%"}, {"smiles": "CN1CCC(Nc2ccc(F)c(Cl)c2)CC1", "inhibition": "inactive: -1.06%"}, {"smiles": "CCCOc1ccc(C(=O)NCC2(N(C)C)CCCCC2)cc1", "inhibition": "inactive: -0.145%"}, {"smiles": "O=C(O)C1(Nc2ccccc2)CCN(Cc2ccccc2)CC1", "inhibition": "inactive: -0.365%"}, {"smiles": "CCC(CO)(C(=O)OC1CN2CCC1CC2)c1ccccc1", "note": "(stereo unspecified)", "inhibition": "inactive: -1.71%"}, {"smiles": "COc1cc(OC)cc(C(=O)NCC2(N3CCOCC3)CCCCC2)c1", "inhibition": "inactive: 0.2%"}, {"smiles": "COc1cccc(C(=O)N(c2cc(C)cc(C)c2)C2CCN(C(=O)OC(C)(C)C)CC2)c1", "inhibition": "inactive: 4.73%"}, {"smiles": "CCCOc1ccc(C)cc1CN(CCCl)CCCl", "inhibition": "inactive: 2.68%"}, {"smiles": "CN1CCC(Nc2ccc(Cl)cc2)CC1", "inhibition": "inactive: 2.67%"}, {"smiles": "COc1ccc(C(=O)NCC2(N3CCOCC3)CCCCC2)cc1OC", "inhibition": "inactive: -1.37%"}, {"smiles": "N/C(=N\\O)c1c(N)no[n+]1[O-]", "inhibition": "inactive: -1.46%"}, {"smiles": "CCOC(=O)N1CCC(Nc2ccc(C)cc2)CC1", "inhibition": "inactive: -1.86%"}, {"smiles": "CCc1cc(C(=O)NCC2(N3CCCCC3)CCCCC2)sc1C", "inhibition": "inactive: 0.757%"}, {"smiles": "O=C(OC1CN2CCC1CC2)C1c2ccccc2C=Cc2ccccc21", "note": "(stereo unspecified)", "inhibition": "inactive: -2.93%"}, {"smiles": "CC(C)(C)OC(=O)N1CCC(N(C(=O)c2ccccc2)c2ccc(Cl)cc2)CC1", "inhibition": "inactive: 0.0667%"}, {"smiles": "N#Cc1ccc(C(=O)NCC2(N3CCCCC3)CCCCC2)cc1", "inhibition": "inactive: 0.0742%"}, {"smiles": "c1ccc(CN2CCC(Nc3ccccc3)CC2)cc1", "inhibition": "inactive: -0.179%"}, {"smiles": "CCCN1CCC(Nc2cc(OC)cc(OC)c2)CC1", "inhibition": "inactive: -3.67%"}, {"smiles": "CN(C)C1(CNC(=O)c2cccc(C#N)c2)CCCCC1", "inhibition": "inactive: -2.1%"}, {"smiles": "O=C(NCC1(N2CCCCC2)CCCCC1)c1ccc(OC(F)F)cc1", "inhibition": "inactive: -0.663%"}, {"smiles": "O=C(NCC1(N2CCCCC2)CCCCC1)c1cccc([N+](=O)[O-])c1", "inhibition": "inactive: 0.071%"}, {"smiles": "CCN1CCC(Nc2ccc(Cl)cc2)CC1", "inhibition": "inactive: 3.99%"}, {"smiles": "N#CC1(Nc2ccccc2)CCN(CCc2ccccc2)CC1", "inhibition": "inactive: -4.53%"}, {"smiles": "O=C(NCC1(N2CCCCC2)CCCCC1)c1cccc(C(F)(F)F)c1", "inhibition": "inactive: -1.07%"}, {"smiles": "CN1CCN(CCOC(=O)C(O)(c2ccccc2)c2ccccc2)CC1", "inhibition": "inactive: -0.0448%"}, {"smiles": "COc1ccc(NC2CCN(C(=O)OC(C)(C)C)CC2)cc1", "inhibition": "inactive: 0.94%"}, {"smiles": "COc1cc(C(=O)NCC2(N3CCCCC3)CCCCC2)ccc1OC(F)F", "inhibition": "inactive: 1.12%"}, {"smiles": "O=C(NCC1(N2CCOCC2)CCCCC1)c1cc(=O)[nH]c2ccccc12", "inhibition": "inactive: 0.784%"}, {"smiles": "COc1ccc(CN(CCCl)CCCl)cc1Cl", "inhibition": "inactive: 4.44%"}, {"smiles": "CN(C)c1cccc(C(=O)NCC2(N3CCCCC3)CCCCC2)c1", "inhibition": "inactive: 1.51%"}, {"smiles": "CC(C)c1ccc(NC2CCN(C(=O)OC(C)(C)C)CC2)cc1", "inhibition": "inactive: 1.11%"}, {"smiles": "COc1cc(OC)c(C(=O)NCC2(N(C)C)CCCCC2)cc1OC", "inhibition": "inactive: -1.32%"}, {"smiles": "CN1CCC(Nc2cccc(F)c2)CC1", "inhibition": "inactive: -1.15%"}, {"smiles": "CCCOc1ccc(C(=O)NCC2(N(C)C)CCCCC2)cc1OC", "inhibition": "inactive: -0.74%"}, {"smiles": "O=C(NCC1(N2CCCCC2)CCCCC1)c1ccc(=O)[nH]c1", "inhibition": "inactive: 0.748%"}, {"smiles": "O=C(NCC1(N2CCCCC2)CCCCC1)c1cccs1", "inhibition": "inactive: 8.99%"}, {"smiles": "COc1ccc(C(=O)NCC2(N3CCCCC3)CCCCC2)cc1", "inhibition": "inactive: 2.39%"}, {"smiles": "CC(C)(C)OC(=O)N1CCC(N(C(=O)c2ccccc2)c2ccc(F)cc2)CC1", "inhibition": "inactive: -0.97%"}, {"smiles": "COc1ccc(C(=O)NCC2(N3CCCCC3)CCCCC2)c(OC)c1OC", "inhibition": "inactive: 1.77%"}, {"smiles": "O=C(NCC1(N2CCOCC2)CCCCC1)c1cc2ccccc2o1", "inhibition": "inactive: 2.2%"}, {"smiles": "O=C(NCC1(N2CCCCC2)CCCCC1)c1ccc(Cl)nc1", "inhibition": "inactive: 1.36%"}, {"smiles": "Cc1cc(C)cc(N(C(=O)c2ccccc2)C2CCN(C(=O)OC(C)(C)C)CC2)c1", "inhibition": "inactive: 12.8%"}, {"smiles": "CCOC(=O)N1CCC(Nc2ccc(OC)cc2)CC1", "inhibition": "inactive: -4.3%"}, {"smiles": "N#CC1(Nc2ccccc2)CCN(Cc2ccccc2)CC1", "inhibition": "inactive: 0.0291%"}, {"smiles": "O=C(OC1CN2CCC1CC2)C1c2ccccc2Oc2ccccc21", "note": "(stereo unspecified)", "inhibition": "inactive: -1.26%"}, {"smiles": "CCOc1ccc(C)cc1CN(CCCl)CCCl", "inhibition": "inactive: 2.93%"}, {"smiles": "O=C(NCC1(N2CCCCC2)CCCCC1)c1ccc(F)cc1", "inhibition": "inactive: -0.425%"}, {"smiles": "COc1ccc(NC2CCN(CCc3ccccc3)CC2)c(OC)c1", "inhibition": "inactive: -4.17%"}, {"smiles": "CCOC(=O)N1CCC(Nc2ccc(F)cc2)CC1", "inhibition": "inactive: -3.87%"}, {"smiles": "CCOC(=O)N1CCC(Nc2cccc(C)c2)CC1", "inhibition": "inactive: 2.46%"}, {"smiles": "COc1cc(C(=O)NCC2(N(C)C)CCCCC2)ccc1OC(F)F", "inhibition": "inactive: -0.145%"}, {"smiles": "Cc1ccc(OCC(C)C)c(CN(CCCl)CCCl)c1", "inhibition": "inactive: 5.13%"}]}]}
